Measured values from several laboratories, pooled; numbers as filed in NIAID ChemDB.

Common to all: tests on isolated targets; agent: HIV-1; protein: Protease

Rows are shuffled and stem from different studies.

SMILES | mutations | method | endpoint | result
CC(C)(C)OC(=O)N[C@@H](Cc1ccccc1)[C@@H](O)C[C@@H](Cc1ccc(OCCN2CCOCC2)cc1)C(=O)N[C@H]1c2ccccc2C[C@H]1O | PR-M46I | fluorescence | Ki | 0.000054 µM
Cc1ccnc(CO[C@@H]2[C@H](O)[C@@H](O)[C@@H](OCc3cc(C)ccn3)[C@@H](Cc3ccccc3)S(=O)(=O)[C@@H]2Cc2ccccc2)c1 | - | fluorescence | IC50 | 10–50 µM
CC[C@H](C)[C@H](NC(=O)[C@@H]1CCCN1C(=O)C=O)C(=O)N[C@H](C(N)=O)C(C)C | - | absorbance | Ki | 520 µM
CC(C)[C@H](NC(=O)N(C)Cc1ccccn1)C(=O)N[C@@H](Cc1ccccc1)[C@H](O)[C@@H](O)[C@H](Cc1ccccc1)NC(=O)[C@@H](NC(=O)N(C)Cc1ccccn1)C(C)C | - | fluorescence | Ki | 0.000077 µM
CCC(C)[C@H](NC(=O)CCCCCCCCCCCCCCC(=O)N[C@@H](CC(N)=O)C(=O)N[C@@H](Cc1ccccc1)C(=O)O)C(=O)N[C@@H](Cc1ccc([N+](=O)[O-])cc1)C(N)=O | - | HPLC | IC50 | 0.59 µM
O=[N+]([O-])c1cccc(CO[C@@H]2[C@H](O)[C@@H](O)[C@@H](OCc3cccc([N+](=O)[O-])c3)[C@@H](Cc3ccccc3)S(=O)[C@@H]2Cc2ccccc2)c1 | - | fluorescence | IC50 | <2 µM
C[C@H](Cc1cc2c(cc1O)OCO2)[C@H](C)Cc1cc2c(cc1O)OCO2 | - | substrate cleavage | IC50 | 5.6 µM
CC[C@H](C)[C@H](NC(=O)[C@@H]1CCCN1C(=O)[C@H](Cc1ccccc1)NC(=O)[C@H](CC(N)=O)NC(=O)C=O)C(=O)N[C@H](C(N)=O)C(C)C | - | absorbance | Ki | 950 µM
N#Cc1ccccc1O[C@@H]1[C@H](O)[C@@H](O)[C@@H](Oc2ccccc2C#N)CS(=O)(=O)[C@@H]1Cc1ccccc1 | - | fluorescence | IC50 | 2–10 µM
CC(C)[C@H](NC(=O)N(C)Cc1ccccn1)C(=O)N[C@@H](Cc1ccccc1)C[C@H](O)[C@H](Cc1ccccc1)NC(=O)[C@@H](NC(=O)N(C)Cc1ccccn1)C(C)C | - | fluorescence | Ki | 0.000035 µM
CCC(C)[C@H](NC(=O)CCCCCCCCCCCCCCC(=O)N[C@@H](CC(N)=O)C(=O)N[C@@H](Cc1ccc2ccccc2c1)C(=O)O)C(=O)N[C@@H](Cc1ccccc1)C(N)=O | - | HPLC | IC50 | 0.627 µM
O[C@@H]1[C@@H](O)[C@@H](OCc2ccccc2)CS[C@H](Cc2ccccc2)[C@@H]1OCc1ccccc1 | - | fluorescence | IC50 | 10–50 µM
CC(C)[C@H](NC(=O)N(C)Cc1ccccn1)C(=O)N[C@@H](Cc1ccccc1)[C@@H](O)[C@H](O)[C@H](Cc1ccccc1)NC(=O)[C@@H](NC(=O)N(C)Cc1ccccn1)C(C)C | PR-R8Q | fluorescence | Ki | 0.023 µM
O=S1(=O)[C@H](Cc2ccccc2)[C@H](OCc2cccc(O)c2)[C@H](O)[C@@H](O)[C@@H](OCc2cccc(O)c2)[C@H]1Cc1ccccc1 | - | fluorescence | IC50 | <2 µM
Cc1ccc(S(=O)(=O)N(CC(C)C)[C@@H](CCCCNC(=O)[C@H](CC2C=Nc3ccccc32)NS(=O)(=O)c2ccccc2)C(=O)OCC(O)CO)cc1 | - | FRET | Ki | >0.3 µM
CCC(C)[C@H](NC(=O)CCCCCCCCCCCCCCC(=O)N[C@@H](CC(N)=O)C(=O)N[C@@H](CC1CCCCC1)C(=O)O)C(=O)N[C@@H](Cc1ccccc1)C(N)=O | - | HPLC | IC50 | 0.665 µM
Cc1ccc(S(=O)(=O)N(CC(C)C)[C@@H](CCCCNC(=O)[C@H](Cc2ccccc2)NC(=O)NCCO)C(=O)O)cc1 | - | FRET | Ki | 0.0021 µM
N#Cc1ccc(O[C@@H]2[C@H](O)[C@@H](O)[C@@H](Oc3ccc(C#N)cc3)CS[C@@H]2Cc2ccccc2)cc1 | - | fluorescence | IC50 | 2–10 µM
CCC(C)[C@H](NC(=O)CCCCCCCCCCCCCCC(=O)Nc1ccccc1C(=O)N[C@@H](Cc1ccccc1)C(=O)O)C(=O)N[C@@H](Cc1ccccc1)C(N)=O | - | HPLC | IC50 | 0.552 µM
CC(C)(C)NC(=O)[C@@H]1C[C@H](Cl)CN1C(=O)[C@@H](O)[C@H](Cc1ccccc1)NC(=O)OC1CCNC1 | - | - | IC50 | >1 µM
O=S1(=O)[C@H](Cc2ccccc2)[C@H](OCc2ccccn2)[C@H](O)[C@@H](O)[C@@H](OCc2ccccn2)[C@H]1Cc1ccccc1 | - | fluorescence | IC50 | <2 µM
COC(=O)[C@@H](NC(=O)[C@@H](NC(=O)CC[C@H](O)[C@H](Cc1ccccc1)NC(=O)[C@H](C)NC(=O)OCc1ccccc1)C(C)C)C(C)C | - | - | Ki | 0.12 µM
CN[C@H]1CO[C@@H]2OC[C@H](OC(=O)N[C@@H](Cc3ccccc3)[C@H](O)CN(CC(C)C)S(=O)(=O)c3ccc(OC)cc3)[C@@H]21 | - | substrate cleavage / fluorescence | Ki | 0.0314 µM
O=S1(=O)[C@H](Cc2ccccc2)[C@H](OCc2ccccc2)[C@H](O)[C@@H](O)[C@H](OCc2ccccc2)[C@H]1Cc1ccccc1 | - | fluorescence | IC50 | <2 µM
COc1cc([C@H]2O[C@H](c3ccc(OC(C)C(O)c4ccc5c(c4)OCO5)c(OC)c3)[C@H](C)[C@H]2C)ccc1O | - | substrate cleavage | IC50 | >125 µM
CCC(C)[C@H](NC(=O)CCCCCCCCCCCCCCC(=O)N[C@@H](CC(N)=O)C(=O)N[C@@H](Cc1ccccc1)C(=O)O)C(=O)N[C@@H](CCO)C(N)=O | - | HPLC | IC50 | >1 µM
N#Cc1ccc(O[C@@H]2[C@H](O)[C@@H](O)[C@@H](Oc3ccc(C#N)cc3)CS(=O)[C@@H]2Cc2ccccc2)cc1 | - | fluorescence | IC50 | 10–50 µM

For reference, 4 entries again:

SMILES	mutations	method	endpoint	result
O=[N+]([O-])c1cccc(CO[C@@H]2[C@H](O)[C@@H](O)[C@@H](OCc3cccc([N+](=O)[O-])c3)[C@@H](Cc3ccccc3)S(=O)[C@@H]2Cc2ccccc2)c1	-	fluorescence	IC50	<2 µM
CCC(C)[C@H](NC(=O)CCCCCCCCCCCCCCC(=O)N[C@@H](CC(N)=O)C(=O)N[C@@H](Cc1ccccc1)C(=O)O)C(=O)N[C@@H](CCO)C(N)=O	-	HPLC	IC50	>1 µM
CCC(C)[C@H](NC(=O)CCCCCCCCCCCCCCC(=O)Nc1ccccc1C(=O)N[C@@H](Cc1ccccc1)C(=O)O)C(=O)N[C@@H](Cc1ccccc1)C(N)=O	-	HPLC	IC50	0.552 µM
Cc1ccc(S(=O)(=O)N(CC(C)C)[C@@H](CCCCNC(=O)[C@H](CC2C=Nc3ccccc32)NS(=O)(=O)c2ccccc2)C(=O)OCC(O)CO)cc1	-	FRET	Ki	>0.3 µM

Two numbers with a dash give a range or band. ICn is the concentration giving n% inhibition. An empty or dashed field is not shown.